{
  "source": "patent US20170321196A1",
  "about": "“ANALYTICAL AND DIAGNOSTIC METHODS UTILIZING SHIGELLA FLEXNERI APYRASE” (priority 2014, published 2017)",
  "molecules": {"B1": {"name": "rSFA: Recombinant Shigella flexneri apyrase with 6-His tag, amino-acid sequence SEQ ID NO: 4, expressed in E. coli BL21-A1 (protein, listed as Shigella flexneri)", "chain": "DIHMKTKNFLLFCIATNMIFIPSANALKAEGFLTQQTSPDSLSILPPPPAENSVVFQADKAHYEFGRSLRDANRVRLASEDAYYENFGLAFSDAYGMDISRENTPILYQLLTQVLQDSHDYAVRNAKEYYKRVRPFVIYKDATCTPDKDEKMAITGSYPSGHASFGWAVALILAEINPQRKAEILRRGYEFGESRVICGAHWQSDVEAGRLMGASVVAVLHNTPEFTKSLSEAKKEFEELNTPTNELTPHHHHHHRTMF", "modifications": "6-His tag"}},
  "assay": "ATP degradation by apyrase in buffer, firefly luciferase bioluminescent assay",
  "format": "biochemical",
  "description": "Cuvettes contained 100 μL sample in a total volume of 1 mL containing ATP Reagent SL (BioThema AB, Sweden) in 0.07 mol/L Tris- EDTA Buffer and the reaction was started by injection of 10 μL 10 μmol/L ATP Standard. The initial apyrase activity was determined as described by Lundin and coworkers (Analytical Biochemistry 75, 611-620 (1976) and Methods in Enzymology vol 305, 346-370 (2000)) with some modifications. Bioluminescence was measured at every 10 s during 1 min, in the fully automatic 1251 Luminometer (LKB-Wallac, Turku, Finland). To this, 10 μl of 10 μmol/L ATP was added to determine the background ground luminescence. The temperature control was set to 25° C. and bioluminescence was measured from several cuvettes in parallel during 30 or 60 minutes and compared to residual ATP after various incubation times using rSFA and STA. This was repeated with rSFA and STA and a graph was plotted by keeping the ATP-degradation rate as internal control to determine the ATP-degradation efficiency of both of the enzyme sources.\nLight emission from the firefly-luciferase reaction was measured at 25° C. in a 1251 Luminometer (LKB-Wallac; Finland) using the ATP Kit SL (BioThema AB, Sweden) according to the manufacture's instruction (in buffer experiment) or adding concentrated luciferase (in serum/urine experiments). Initially luciferase reaction follows first-order kinetics and the ATP Reagent SL in this kit produces light intensity proportional to the ATP concentration. A plot of the natural logarithm of the light intensity versus time yields a straight line with the slope representing the rate constant of the reaction. Starting concentration of STA, A6535, A6237 (Sigma-Aldrich) was adjusted similar to rSFA. BL-reaction was started automatically upon addition of 0.2 μmol/L ATP, and the light intensity was measured every 10 second for 10 minutes (in buffer experiment) or 30 minutes (in serum and urine experiments), in the reaction volume of 0.5 mL.",
  "data": [
    {"molecule": "B1", "values": [
      {"measurement": "concentration of ATP in rSFA treated samples lower than STA-treated samples", "setting": "at 91 minutes", "result": "about 45 fold"},
      {"measurement": "improvement in completeness of ATP elimination versus commercial STA variants", "setting": "in buffer, FIG. 7, log scale", "result": "at least 10 fold"},
      {"measurement": "concentration of ATP in rSFA treated samples lower compared to STA-treated samples", "setting": "time point 17 minutes", "result": "about 20 times"}
    ]}
  ]
}
